Results of unrelated studies side by side (data: NIAID ChemDB).

All rows: growth or infection tests; species: Mycobacterium tuberculosis

Lines come from different laboratories, so protocols vary. a–b is a range or a potency band. A number after MIC or MFC names an inhibition level or a share of isolates. Inhibition is in % at the dose shown (toxicity tests: loss of growth or viability). MIC bound comes from a single tested concentration. Blank or dashed fields: not listed here. ECn: concentration that inhibits the pathogen or its effect by n%.

compound	method	strain	endpoint	setting	tested at	changes	result
COC(=O)c1cnccn1	BACTEC	H37Rv	MIC bound				>12.5 µg/mL
NC(=S)c1cnc(C(=O)c2ccccc2O)cn1	resazurin	H37Rv	EC50				<6.25 µg/mL
O=C(COc1cnccn1)NNC(=S)Nc1ccc(Cl)cc1		H37Rv	MIC				62 µg/mL
COc1cc(C(O)(CCN(C)C)C(c2cc(-c3ccccc3Cl)cnc2OC)c2cccc(OC)c2F)cc(OC)n1	fluorescence	H37Rv	EC90				9.8 µM
C/C=C/c1ccc2c(c1)[C@@H](C)[C@H](c1ccc(OC)cc1)O2	resazurin / absorbance	H37Rv	MIC				7.8 µg/mL
Cc1c(N=Nc2c(S(=O)(=O)[O-])cc3cc(S(=O)(=O)[O-])c(N=Nc4c(C)n(C)n(-c5ccccc5)c4=O)c(O)c3c2O)c(=O)n(-c2ccccc2)n1C.[Na+].[Na+]	BACTEC	H37Rv	MIC				≥12.8 µg/mL
Cc1ccc2oc(=S)n(-c3cccc(Cl)c3)c(=S)c2c1		My 331/88	MIC	21 d			0.5 µM
O=Cc1coc2ccc([N+](=O)[O-])cc2c1=O		My 331/88	MIC				1000 µM
O=Cc1c(-c2ccc(Br)cc2)nc2sc(-c3ccco3)nn12	BACTEC	H37Rv	inhibition		6.25 µg/mL		<90%
CO[C@H]1/C=C/O[C@@]2(C)Oc3c(C)c(O)c4c(O)c(c(C=Nc5ccc6ccccc6c5)c(O)c4c3C2=O)NC(=O)/C(C)=C\C=C\[C@H](C)[C@H](O)[C@@H](C)[C@@H](O)[C@@H](C)[C@H](OC(C)=O)[C@@H]1C		H37Rv	MIC				>1 µg/mL
S=C([S-])N(c1ccccc1)N(C(=S)[S-])c1ccccc1.[Na+].[Na+]	BACTEC	H37Rv	MIC bound				>12.5 µg/mL
O=C1c2cc(Br)ccc2OP(=O)(c2ccccc2)N1c1ccc(C(F)(F)F)cc1		My 331/88	MIC	7 d			1 µM
CCOC(=O)C(C#N)C=Nc1cccc(N(C)C)c1	BACTEC	H37Rv	MIC bound				>12.5 µg/mL
CCCCn1c(-c2ccc(Br)cc2)cs/c1=N\NC(=O)COc1cnccn1		H37Rv	MIC				7.4 µg/mL
N#Cc1cnc(C(=O)c2ccccc2)cn1	resazurin	H37Rv	inhibition		6.25 µg/mL		10%
O=C(Nc1ccc(Cl)c(Cl)c1)c1cc(Cl)ccc1OP(=O)(OCc1ccccc1)OCc1ccccc1		My 331/88	MIC	7 d			32 µM
CCCCCCCCO[C@@H]1O[C@H]([C@@H](COC)O[C@H]2O[C@H](CO)[C@@H](O)[C@@H]2O)[C@H](OC)[C@H]1OC		H37Ra	MIC				>128 µg/mL
COc1cc(C(O)(CCN(C)C)C(c2cc(-c3ccccc3C)cnc2OC)c2cccc(OC)c2F)cc(OC)n1	fluorescence	H37Rv	EC90				9.96 µM
CC[N+](CC)=c1cc2oc3cc(N(C)C)ccc3nc-2cc1C.[Cl-]	BACTEC	H37Rv	inhibition		12.5 µg/mL		97%
CO[C@H]1/C=C/O[C@@]2(C)Oc3c(C)c(O)c4c(O)c(c(/C=N/N5CCN(C)CC5)c(O)c4c3C2=O)NC(=O)/C(C)=C\C=C\[C@H](C)[C@H](O)[C@@H](C)[C@@H](O)[C@@H](C)[C@H](OC(C)=O)[C@@H]1C	turbidity / fluorescence	H37Rv-MA	MIC90				0.036 µM
Cc1oc(C)c(-c2ccccc2)c1C(=O)N1CCN(C)CC1	BACTEC	H37Rv	MIC bound				>12.5 µg/mL
C[C@H]1COc2c(N3CCN(C)CC3)c(F)cc3c(=O)c(C(=O)O)cn1c23		19 strains	MIC90				0.5 µg/mL
CC(=O)NC[C@H]1CN(c2ccc(N3CCOCC3)c(F)c2)C(=O)O1		42 isolates	MIC50				0.25 µg/mL
CO[C@H]1/C=C/O[C@@]2(C)Oc3c(C)c(O)c4c(O)c(c(/C=N/N5CCCC(O)C5)c(O)c4c3C2=O)NC(=O)/C(C)=C\C=C\[C@H](C)[C@H](O)[C@@H](C)[C@@H](O)[C@@H](C)[C@H](OC(C)=O)[C@@H]1C		H37Rv	MIC				0.05 µg/mL
N[C@@H](C[C@H]1CCC(=O)[C@@H]2O[C@H]12)C(=O)O	BACTEC	H37Rv	inhibition		12.5 µg/mL		21%
O=C(Nc1ccccc1)c1ccccc1OP(=O)(c1ccccc1)c1ccccc1		My 331/88	MIC	14 d			125 µM
Fc1ccc2oc(=S)n(-c3ccc(Cl)cc3)c(=S)c2c1		My 331/88	MIC	21 d			2 µM
CCOc1ccc(N2C(=O)CS/C2=N\NC(=O)COc2cnccn2)cc1		H37Rv	MIC				169 µg/mL
CCCCCCCCO[C@@H]1O[C@H]([C@@H](CO)O[C@H]2O[C@H](CO)[C@@H](O)[C@@H]2O)[C@H](O)[C@H]1O		H37Ra	MIC				>128 µg/mL
COc1ccc2c(c1)n([O-])c1ccccc1[n+]2=O		PAS-R	MIC				0.8 µg/mL
N#Cc1cnc(C(=O)c2ccccc2O)cn1	resazurin	H37Rv	EC50				>6.25 µg/mL
CC(=O)OCC1=C(C(=O)O)N2C(=O)[C@@H](NC(=O)CSc3ccncc3)[C@H]2SC1	BACTEC	H37Rv	MIC bound				>12.5 µg/mL
O=C(O)c1cnc(C(=O)c2ccccc2O)cn1	resazurin	H37Rv	inhibition		6.25 µg/mL		4%
C=C(C)C1Cc2c(ccc3c(=O)c4c(oc23)COc2cc(OC)c(OC)cc2-4)O1	BACTEC	H37Rv	MIC bound				>12.5 µg/mL
O=c1oc2ccc(F)cc2c(=S)n1-c1cccc(F)c1		My 331/88	MIC	14 d			8 µM
c1ccc(-c2nc3sc(-c4cccs4)nn3c2CC2CCOCC2)cc1	BACTEC	H37Rv	inhibition		6.25 µg/mL		<90%
CC(C)n1c(-c2ccc(Cl)cc2Cl)cs/c1=N\NC(=O)COc1cnccn1		H37Rv	MIC				8.2 µg/mL
CCC[CH2][Sn]([Cl])([Br])[CH2]CCC.c1cnc2c(c1)ccc1cccnc12	BACTEC	H37Rv	MIC bound				≤12.5 µg/mL
CO[C@H]1/C=C/O[C@@]2(C)Oc3c(C)c(O)c4c(O)c(c(C=Nc5ccccc5)c(O)c4c3C2=O)NC(=O)/C(C)=C\C=C\[C@H](C)[C@H](O)[C@@H](C)[C@@H](O)[C@@H](C)[C@H](OC(C)=O)[C@@H]1C		H37Rv	MIC				5 µg/mL
O=C1c2cc(Cl)ccc2OP(=O)(c2ccccc2)N1c1ccc(C(F)(F)F)cc1		234/2005	MIC	14 d			1 µM
FC(F)(F)c1ccc(-n2c(=S)oc3ccc(Br)cc3c2=S)cc1		My 331/88	MIC	14 d			4 µM
O=NNc1ccc2cccnc2n1	BACTEC	H37Rv	MIC bound				>12.5 µg/mL
COc1cc(C(O)(CCN(C)C)C(c2cc(-c3cccc(C#N)c3)cnc2OC)c2cccc(OC)c2F)cc(OC)n1	fluorescence	H37Rv	EC90				6.19 µM
Fc1ccc2oc(=S)n(-c3ccc(Cl)c(Cl)c3)c(=S)c2c1		My 331/88	MIC	14 d			1 µM
O=C(Nc1ccccc1)c1ccccc1OP(=O)(OCc1ccccc1)OCc1ccccc1		My 331/88	MIC	14 d			250 µM
N#Cc1cnc(C(=O)c2ccc(Cl)cc2)cn1	resazurin	H37Rv	EC50				>6.25 µg/mL
COc1cc(C(O)(CCN(C)C)C(c2cc(-c3ccccn3)cnc2OC)c2cccc(OC)c2F)cc(OC)n1	fluorescence	H37Rv	EC90				22.55 µM
CO[C@H]1/C=C/O[C@@]2(C)Oc3c(C)c(O)c4c(O)c(c(/C=N/OCCN5CCOCC5)c(O)c4c3C2=O)NC(=O)/C(C)=C\C=C\[C@H](C)[C@H](O)[C@@H](C)[C@@H](O)[C@@H](C)[C@H](OC(C)=O)[C@@H]1C		H37Rv	MIC				0.5 µg/mL
O=C(Nc1ccc(Cl)cc1)c1cc(Cl)ccc1OP(=O)(Oc1ccccc1)c1ccccc1		My 331/88	MIC	7 d			4 µM
Cc1ccc2occ(C=O)c(=O)c2c1		My 331/88	MIC				500 µM
O=c1nc2n(CC(O)C(O)C(O)C(O)CO)c3cc(Cl)c(Cl)cc3nc-2c(=O)[nH]1	BACTEC	H37Rv	MIC bound				>12.5 µg/mL
C/C=C/c1ccc2oc(-c3ccc(O)c(OC)c3)c(C)c2c1	resazurin / absorbance	Clinical isolate 91	MIC			isoniazid and streptomycin resistant	7.8 µg/mL
CC1=C(O)C(=O)C=C2C1=CC=C1[C@@]2(C)CC[C@@]2(C)[C@@H]3C[C@](C)(C(=O)O)CC[C@]3(C)CC[C@]12C	BACTEC	H37Rv	MIC bound				>12.8 µg/mL
c1ccc(-c2cn3nc(C4CCCCC4)sc3n2)cc1	BACTEC	H37Rv	inhibition		6.25 µg/mL		<90%
CO[C@H]1/C=C/O[C@@]2(C)Oc3c(C)c(O)c4c(O)c(c(/C=N/N5CCN(C)CC5)c(O)c4c3C2=O)NC(=O)/C(C)=C\C=C\[C@H](C)[C@H](O)[C@@H](C)[C@@H](O)[C@@H](C)[C@H](OC(C)=O)[C@@H]1C		H37Rv	MIC				0.5 µg/mL
CC[C@H]1OC(=O)[C@H](C)[C@@H](O[C@H]2C[C@@](C)(OC)[C@@H](OC(C)=O)[C@H](C)O2)[C@H](C)[C@@H](O[C@@H]2O[C@H](C)C[C@H](N(C)C)[C@H]2O)C(C)(O)C[C@@H](C)/C(=N\OCCCC2CCCCC2)[C@H](C)[C@@H](O)[C@]1(C)O		4 (MDR)	MIC				3.13 µg/mL
[N-]=[N+]=CC(=O)CCC(=O)N(c1ccccc1)c1ccccc1	BACTEC	H37Rv	MIC bound				>12.5 µg/mL
O=c1oc2ccc(Cl)cc2c(=S)n1-c1cccc(F)c1		My 331/88	MIC	21 d			4 µM
OCc1c(-c2ccc(Br)cc2)nc2sc(-c3cccs3)nn12	BACTEC	H37Rv	inhibition		6.25 µg/mL		<90%
COc1ccc2oc(=S)n(-c3ccc(Br)cc3)c(=S)c2c1		My 331/88	MIC	21 d			16 µM
CCOc1c(N=Nc2ccccc2OC)c(C)nn1C(=S)S	BACTEC	H37Rv	MIC				≥12.5 µg/mL
O=C(COc1cnccn1)N/N=c1\scc(-c2ccccc2)n1-c1ccc(Cl)cc1Cl		H37Rv	MIC				12.4 µg/mL
CCc1nc2ccccc2n1CCCCSc1nc(-c2ccccc2)cs1	turbidity / fluorescence	H37Rv-LP	MIC90				1.1 µM
COC(=O)c1cnc(C(=O)c2ccccc2O)cn1	resazurin	H37Rv	EC50				<6.25 µg/mL
O=Cc1coc2ccc(F)cc2c1=O		My 331/88	MIC				500 µM
O=C(Nc1ccc(C(F)(F)F)cc1)c1cc(Cl)ccc1OP(=O)(c1ccccc1)c1ccccc1		234/2005	MIC	14 d			1 µM
O=c1c2oc3ccccc3c2cnn1CO	BACTEC	H37Rv	inhibition		12.5 µg/mL		16%
c1ccc(-c2nc3sc(-c4ccco4)nn3c2CC2CCOCC2)cc1	BACTEC	H37Rv	inhibition		6.25 µg/mL		<90%
CN1C(=O)C2(C)SSC1(C)C(=O)N2C	BACTEC	H37Rv	inhibition		12.5 µg/mL		80%
CCCc1ccc2oc(-c3ccc(O)c(OC)c3)c(C)c2c1	resazurin / absorbance	H37Rv	MIC				7.8 µg/mL
C[N+](C)(C)CC(=O)N/N=C/c1cccc2ccccc12.[Cl-]	BACTEC	H37Rv	inhibition		12.5 µg/mL		-1%
CCc1nc2ccc(C)cc2n1CCCCNc1ccccc1	turbidity / fluorescence	H37Rv-MA cydC::aph	MIC90				0.17 µM
CCN(CC)CCCC(C)Nc1cc(C)nc(Nc2nc3cc(Cl)c(Cl)cc3[nH]2)n1	BACTEC	H37Rv	inhibition		12.5 µg/mL		95%
N[C@@H]1CN(c2c(F)cc3c(=O)c(C(=O)O)cn([C@@H]4C[C@@H]4F)c3c2Cl)CC12CC2	resazurin	Clinical strain	MIC			Gyrase Glu540Asp	0.031–0.125 µg/mL
CCOC(=O)C(Cc1ccccc1)NP(=O)(CCC(=O)N1C[C@H](OCC(O)P(=O)(NC(Cc2ccccc2)C(=O)OCC)NC(Cc2ccccc2)C(=O)OCC)[C@H](n2cnc3c(=O)[nH]c(N)nc32)C1)NC(Cc1ccccc1)C(=O)OCC	resazurin / fluorescence	H37Rv	MIC90				14 µM
CCc1nc2ccccc2n1CCCCOc1ccc2sc(C)nc2c1	turbidity / fluorescence	H37Rv-MA cydC::aph	MIC90				0.82 µM
NC(=S)c1cnc(C(=O)c2ccccc2)cn1	resazurin	H37Rv	EC50				>6.25 µg/mL

Repeating the final 9 entries:

CN1C(=O)C2(C)SSC1(C)C(=O)N2C ; method: BACTEC ; strain: H37Rv ; endpoint: inhibition ; tested at: 12.5 µg/mL ; result: 80%
CCCc1ccc2oc(-c3ccc(O)c(OC)c3)c(C)c2c1 ; method: resazurin / absorbance ; strain: H37Rv ; endpoint: MIC ; result: 7.8 µg/mL
C[N+](C)(C)CC(=O)N/N=C/c1cccc2ccccc12.[Cl-] ; method: BACTEC ; strain: H37Rv ; endpoint: inhibition ; tested at: 12.5 µg/mL ; result: -1%
CCc1nc2ccc(C)cc2n1CCCCNc1ccccc1 ; method: turbidity / fluorescence ; strain: H37Rv-MA cydC::aph ; endpoint: MIC90 ; result: 0.17 µM
CCN(CC)CCCC(C)Nc1cc(C)nc(Nc2nc3cc(Cl)c(Cl)cc3[nH]2)n1 ; method: BACTEC ; strain: H37Rv ; endpoint: inhibition ; tested at: 12.5 µg/mL ; result: 95%
N[C@@H]1CN(c2c(F)cc3c(=O)c(C(=O)O)cn([C@@H]4C[C@@H]4F)c3c2Cl)CC12CC2 ; method: resazurin ; strain: Clinical strain ; endpoint: MIC ; changes: Gyrase Glu540Asp ; result: 0.031–0.125 µg/mL
CCOC(=O)C(Cc1ccccc1)NP(=O)(CCC(=O)N1C[C@H](OCC(O)P(=O)(NC(Cc2ccccc2)C(=O)OCC)NC(Cc2ccccc2)C(=O)OCC)[C@H](n2cnc3c(=O)[nH]c(N)nc32)C1)NC(Cc1ccccc1)C(=O)OCC ; method: resazurin / fluorescence ; strain: H37Rv ; endpoint: MIC90 ; result: 14 µM
CCc1nc2ccccc2n1CCCCOc1ccc2sc(C)nc2c1 ; method: turbidity / fluorescence ; strain: H37Rv-MA cydC::aph ; endpoint: MIC90 ; result: 0.82 µM
NC(=S)c1cnc(C(=O)c2ccccc2)cn1 ; method: resazurin ; strain: H37Rv ; endpoint: EC50 ; result: >6.25 µg/mL